B1: UM10 (peptide)
peptide: PWSEAMM
modifications: proline 1 is a 1,2,3-triazole-modified proline (Azp) 4-substituted with ferrocene
notes: also called PWSEAMM
B2: UM21 (peptide)
peptide: INNIPWS
modifications: proline 5 is a 1,2,3-triazole-modified proline (Azp) 4-substituted with ferrocene
notes: Rink amide resin; also called INNIPWS
B3: UM13 (peptide)
peptide: EINNIPWS
modifications: proline 6 is a 1,2,3-triazole-modified proline (Azp) 4-substituted with ferrocene
notes: Rink amide resin

Columns and labels:
[1] = biological target: T1, HIV-1YU2 gp120 (HIV-1 strain YU-2, UniProt P35961 32-498, limits assumed); assay: SPR direct binding; YU-2 gp120 immobilized (~3500 RU), peptide as analyte
T1 construct: domain: gp120

[2] = biological target: T1, HIV-1YU2 gp120; assay: SPR competition; gp120 binding to mAb 17b

Row | Binder | Kd [1] | IC50 [2]
1 | B1 | 809 nM | 
2 | B2 | 169 nM | 161 nM
3 | B3 | 5.5 nM | 
